Anti-infective test results gathered from many reports (values: NIAID ChemDB through PubChem).

Shared fields: tests in culture; organism: Vesicular stomatitis virus; cell line: HeLa; method: cytopathic effect; endpoint: EC50

Rows are shuffled and stem from different studies. An empty or dashed field is not shown. ECn is the concentration giving n% inhibition of infection, replication or growth.

compound	strain	value
Nc1nc(N)c2nnn(C[C@H]3CC[C@@H](CO)C3)c2n1		>200 µg/mL
OC[C@H]1O[C@H](n2cnc3cc(Cl)c(Cl)cc32)[C@@H](O)[C@H]1O		>200 µg/mL
NC(=O)c1ncn([C@@H]2O[C@H](CO)[C@@H](O)[C@H]2O)n1		192 µM
Nc1nc2c(nnn2C[C@H]2CC[C@@H](CO)C2)c(=O)[nH]1		>200 µg/mL
O[C@@H]1CC(n2cnc3cc(Cl)c(Cl)cc32)OC[C@@H]1O		>100 µg/mL
NC(=O)c1csc([C@@H]2O[C@H](CO)[C@@H](O)[C@H]2O)n1	Indiana	200 µg/mL
CCOC(=O)C(CCSC[C@H]1O[C@@H](n2ccc3c(N)ncnc32)[C@H](O)[C@@H]1O)NC(=O)COC		70 µg/mL
NC(=O)c1ccnc([C@@H]2O[C@H](CO)[C@@H](O)[C@H]2O)c1		>400 µg/mL
Nc1ncnc2c1ccn2[C@@H]1O[C@H](CO)[C@H](O)[C@H]1O		≥4 µg/mL
Nc1nccc2c1ncn2[C@@H]1C[C@H](CO)[C@@H](O)[C@H]1O		0.3 µg/mL
Nc1nccc2c1ncn2[C@@H]1C[C@H](CO)[C@@H](O)[C@H]1O		0.7 µg/mL
Nc1nc2c(ncn2C[C@H]2CC[C@@H](CO)C2)c(=O)[nH]1		>200 µg/mL
OC[C@H]1O[C@@H](n2cnc3cc(Cl)c(Cl)cc32)[C@H](O)[C@@H]1O		>10 µg/mL
Nc1nccc2c1ncn2[C@@H]1C[C@H](CO)[C@@H](O)[C@H]1O		4 µg/mL
O[C@@H]1[C@@H](OCc2ccccc2)[C@@H](COCc2ccccc2)O[C@H]1n1cnc2cc(Cl)c(Cl)cc21		>10 µg/mL
Nc1nc(N)c2ncn(C[C@H]3CC[C@@H](CO)C3)c2n1		>200 µg/mL
CC(C)[Si]1(C(C)C)OC[C@H]2O[C@@H](n3cnc4cc(Cl)c(Cl)cc43)[C@H](O)[C@H]2O[Si](C(C)C)(C(C)C)O1		>10 µg/mL
Nc1ncnc2c1ncn2C[C@H](O)CO		4 µg/mL

Repeating the first 2 entries:

compound	strain	value
Nc1nc(N)c2nnn(C[C@H]3CC[C@@H](CO)C3)c2n1		>200 µg/mL
OC[C@H]1O[C@H](n2cnc3cc(Cl)c(Cl)cc32)[C@@H](O)[C@H]1O		>200 µg/mL